Measurements taken from patent US12448383B2, “Compounds and methods for treatment of viral infections” (priority 2022, dated 2025).

System: SARS Coronavirus 2 recombinant with NanoLuc (SARS-CoV2-NLuc) in A549-hACE2 cells
Experiment: A549-hACE2 SARS-CoV2-NLuc 384-well assay
Type: cell-based
Conditions: read-out: EC50 SARS CoV2 NanoLuc A549 384, Table D3

`N#C[C@@]1(c2ccc3c(N)ncnn23)O[C@H](COC(=O)OC23CC(C(F)(F)F)(C2)C3)[C@@H](O)[C@H]1O` [Compound 139, [(2R,3S,4R,5R)-5-(4-aminopyrrolo[2,1-f][1,2,4]triazin-7-yl)-5-cyano-3,4-dihydroxy-tetrahydrofuran-2-yl]methyl [3-(trifluoromethyl)-1-bicyclo[1.1.1]pentanyl]carbonate] was tested. Which EC50 did it give?
Its EC50 is 808 nM.
